PubChem BioAssay AID504761, Drosophila RNAi Screening Center – 2011
Aim: 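Insect host genes that dengue virus relies on to spread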 (primary screen). Cells: D.Mel-2 cells from Drosophila. Reagents: long dsRNA against Drosophila genes. Challenge: infection with dengue virus type 2; dose and infection time not stated. Detection: 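Cells stained for dengue envelope protein and imaged; percent of infected cells per well on duplicate plates, ranked by infection, with stained nuclei counted for cell number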. Scale: infection score: higher = more virus-infected cells; cell count: higher = more cells in the well. Call rule: 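Very low infection ranking in both replicate wells (chance probability at most 0.065), then a retest showing infection dropped 1.5-fold or more at p below 0.05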. Meaning of the calls: active = confirmed: knock-down lowers infection; inactive = not picked or not confirmed.
The deposit covers about 22,000 reagents; below is a random part of those that have a named target and a result. In the full data, 116 (0.52%) were called active. 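Calls depend on retest data that are not deposited; infection was ranked per plate without normalising between plates; the unit of the infection score is not given.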 Raw values are not corrected between plates. Names joined by + are all predicted targets of the reagent. Not stated in the record: the amount of reagent, the time to read-out.

Target gene	dsRNA	infection score, replicate 1	infection score, replicate 2	cell count, replicate 1	cell count, replicate 2	call
Arp1 (Actin-related protein 1)	DRSC14118	2.55	2.22	6151	5856	inactive
Arp1 (Actin-related protein 1)	DRSC26164	8.57	1.91	5785	5700	inactive
Fdh (Formaldehyde dehydrogenase)	DRSC16670	11.2	11.3	6541	6418	inactive
asRNA:CR42547 + CG15674	DRSC04264	10.9	20.6	4539	6151	inactive
mTerf5 (mitochondrial transcription termination factor 5)	DRSC16209	19.7	26.4	5895	5621	inactive
Dyro (Dpt-YFP repressor by overexpression)	DRSC10598	0.54	2.36	6064	6188	inactive
Dyro (Dpt-YFP repressor by overexpression)	DRSC25276	2.81	18	6688	6095	inactive
CG32687	DRSC18210	3.66	6.44	6003	6212	inactive
CG32687	DRSC18237	1.47	7.15	6197	5717	inactive
Rift (Riboflavin transporter)	DRSC14330	7.31	3.17	3748	1419	inactive
CG13599	DRSC14602	2.54	5.76	1101	5343	inactive
ksh (kish)	DRSC19554	1.58	1.1	6060	5475	inactive
ksh (kish)	DRSC28147	11.7	14.8	5954	6699	inactive
Sry-alpha (Serendipity alpha)	DRSC16867	6.58		6014	299	inactive
Sry-alpha (Serendipity alpha)	DRSC29189	12.2	12.1	6618	4066	inactive
c(3)G (crossover suppressor on 3 of Gowen)	DRSC15245	17.7	15.9	7000	6382	inactive
c(3)G (crossover suppressor on 3 of Gowen)	DRSC26062	12.6	3.38	5794	6064	inactive
net	DRSC00309	3.18	1.44	6443	7275	inactive
CRIF (CR6-interacting factor)	DRSC11811	6.92	7.59	4521	4837	inactive
CRIF (CR6-interacting factor)	DRSC26514	6.79	2.85	4712	5641	inactive

3 consecutive reagents already listed:
Target gene	dsRNA	infection score, replicate 1	infection score, replicate 2	cell count, replicate 1	cell count, replicate 2	call
Rift (Riboflavin transporter)	DRSC14330	7.31	3.17	3748	1419	inactive
CG13599	DRSC14602	2.54	5.76	1101	5343	inactive
ksh (kish)	DRSC19554	1.58	1.1	6060	5475	inactive

Next results:
Target gene	dsRNA	infection score, replicate 1	infection score, replicate 2	cell count, replicate 1	cell count, replicate 2	call
Nuf2	DRSC03123	4.22	1.15	5920	6014	inactive
FIG4 (FIG4 phosphoinositide 5-phosphatase)	DRSC00515	1.19	28.5	590	5574	inactive
sstn (stepping stone)	DRSC10753	4.18	1.04	5527	6422	inactive
sstn (stepping stone)	DRSC29335	9.67	6.5	5587	3248	inactive
eater	DRSC15969	8.89	4.99	6442	6154	inactive
eater	DRSC22254	0.2	2.6	6409	6421	inactive
eater	DRSC29945	9.02	3.93	6333	6407	inactive
ppk19 (pickpocket 19)	DRSC15321	5.85	2.59	5849	656	inactive
CG5674	DRSC23176	0.93	16.3	5355	5867	inactive
CG5674	DRSC28320	10.8	11.3	6020	4650	inactive
CecB (Cecropin B)	DRSC16605		4.02	286	7214	inactive
Akt (Akt kinase)	DRSC14108	7.75	1.83	6997	7100	inactive
CG3014	DRSC15458	9.25	9.74	6078	6087	inactive
Vps39 (Vacuolar protein sorting 39)	DRSC16205	7.04	3.16	5897	6523	inactive
CG33639	DRSC19966	22.2	19.1	5479	5440	inactive
CG33639	DRSC22820	2.15	7.05	6846	6580	inactive
CG33639	DRSC23778	11.2	1.85	6830	6210	inactive
CG17658	DRSC04292	22.1		5538	332	inactive
CG30099	DRSC07039		2.99	538	1070	inactive
CG30099	DRSC26526	2.02	1.71	6253	6041	inactive
